Anti-infective test results gathered from many reports (values: NIAID ChemDB through PubChem).

Common to all: counter-tests on host proteins

An empty or dashed field is not shown. Percent inhibition refers to the dose given; in toxicity tests it is the harm to the cells. ICn is the concentration giving n% inhibition. Conditions beyond the fields shown may differ between rows.

O=c1c2[nH]cnc2ncn1CCNCCP(=O)(O)O ; species: Human ; target: Hypoxanthine-guanine phosphoribosyltransferase ; method: absorbance ; endpoint: Ki ; value: 40 µM
O=C(Cn1c(-c2cscn2)nc2ccccc21)Nc1ccc(Cl)cc1 ; species: Human ; target: IMPDH2 ; method: fluorescence / absorbance ; endpoint: inhibition ; dose: 5 µM ; value: ≤20%
Nc1nc2c(ncn2CCOCP(=O)(O)O)c(=O)[nH]1 ; species: Human ; target: Hypoxanthine-guanine phosphoribosyltransferase ; method: absorbance ; endpoint: Ki ; value: 29 µM
COc1c(-c2ccc3cc(NS(C)(=O)=O)ccc3c2)cc(-n2ccc(=O)[nH]c2=O)cc1C(C)(C)C ; target: Human polymerase gamma ; endpoint: IC50 ; value: >100 µM
CC(C)=CCN1Cc2cccc3[nH]c(=S)n(c23)C[C@@H]1C ; species: Human ; target: DNA polymerase gamma ; endpoint: IC50 ; value: >175 µM
[N-]=[N+]=Nc1ccc(C(=O)CSc2nc3c(ncn3[C@H]3C[C@H](O)[C@@H](COP(=O)(O)OP(=O)(O)OP(=O)(O)O)O3)c3nccn23)cc1 ; species: Escherichia coli ; target: DNA polymerase I ; method: radiometric ; endpoint: Ki ; value: 78 µM
CC(C)(O/N=C(\C(=O)NCC(O)O)c1csc(N)n1)C(=O)O ; species: Bos primigenius ; target: DNA polymerase beta ; endpoint: IC50 ; value: 0.01 µM
Cc1[nH]c2ccccc2c(=O)c1-c1ccc(Oc2ccc(OC(F)(F)F)cc2)cc1 ; target: HFF ; method: absorbance ; endpoint: IC50 ; value: 0.818 µM
COc1ccc(C2=C3c4cc(OC)c(OC)cc4C=CN3C3C(=O)Oc4cc(OS(=O)(=O)O)c(OC)cc4C23)cc1O ; species: Molluscum contagiosum virus ; target: Topoisomerase ; endpoint: IC50 ; value: >170 µM
Nc1nc2c(ncn2[C@@H]2CNC[C@@H]2OCP(=O)(O)O)c(=O)[nH]1 ; species: Human ; target: Hypoxanthine-guanine phosphoribosyltransferase ; method: absorbance ; endpoint: Ki ; value: 29 µM
O=C(Cn1c(-c2nccs2)nc2ccccc21)Nc1ccc(Cl)c(Cl)c1 ; species: Human ; target: IMPDH2 ; method: fluorescence / absorbance ; endpoint: inhibition ; dose: 2 µM ; value: ≤20%
CCCCCCCC/C=C/CCCCCCCCCCCCCC ; species: Rattus norvegicus ; target: DNA polymerase beta ; endpoint: IC50 ; value: 5 µM
CN[C@H]1[C@@H](O[C@@H]2[C@@H](O[C@H]3[C@H](O)[C@@H](O)[C@H](N=C(N)N)[C@@H](O)[C@@H]3N=C(N)N)O[C@H](C)[C@@]2(O)C=O)O[C@H](CO)[C@@H](O)[C@@H]1O ; target: Canavalia spp ; endpoint: IC50 ; value: 13.23 µM
O=c1[nH]cnc2c1ncn2[C@@H]1CNC[C@@H]1OCP(=O)(O)O ; species: Human ; target: Hypoxanthine-guanine phosphoribosyltransferase ; method: absorbance ; endpoint: Ki ; value: 72 µM
Nc1nc2c(ncn2CCOCCP(=O)(O)O)c(=O)[nH]1 ; species: Human ; target: Hypoxanthine-guanine phosphoribosyltransferase ; method: absorbance ; endpoint: Ki ; value: 1 µM
O=C(Cn1c(-c2nccs2)nc2ccccc21)Nc1ccc(Cl)cc1 ; species: Human ; target: IMPDH2 ; method: fluorescence / absorbance ; endpoint: IC50 ; value: ≥40 µM
Fc1ccc(N2CCCCC2)c(NC(=S)c2ccncc2)c1 ; target: MET(Y1235D) ; method: kinase activity ; endpoint: inhibition ; dose: 10 µM ; value: 11.3%
O=c1[nH]cnc2c1ncn2CCOCCP(=O)(O)O ; species: Human ; target: Hypoxanthine-guanine phosphoribosyltransferase ; method: absorbance ; endpoint: Ki ; value: 3.6 µM

A second listing of 2 rows from above:

compound,species,target,method,endpoint,dose,value
O=C(Cn1c(-c2nccs2)nc2ccccc21)Nc1ccc(Cl)cc1,Human,IMPDH2,fluorescence / absorbance,IC50,-,≥40 µM
Nc1nc2c(ncn2[C@@H]2CNC[C@@H]2OCP(=O)(O)O)c(=O)[nH]1,Human,Hypoxanthine-guanine phosphoribosyltransferase,absorbance,Ki,-,29 µM